# Data published in patent publication US10028933B2, “Compositions and methods for inhibiting the growth of multi-drug resistant microbes” (priority 2015, dated 2018).
# System: P. aeruginosa
# Details: AR-13 alone; 24 hour; n=3
smiles,measurement,value
"NS(=O)(=O)Nc1ccc(-n2nc(C(F)(F)F)cc2-c2ccc3c(ccc4ccccc43)c2)cc1 [AR-13, N-{4-[5-(Phenanthren-2-yl)-3-(trifluoromethyl)-1H-pyrazol-1-yl]phenyl}sulfuric diamide]",reduction of CFU/ml in human CF and non-CF neutrophils infected with P. aeruginosa,about 10 fold
